The values below come from ChEMBL document CHEMBL4004820 (J Med Chem, 2017).

The nature of this test: Antiviral activity against Influenza A virus (A/WSN/1933(H1N1)) expressing M2 proton channel S31N mutant infected in MDCK cells assessed as reduction in cytopathic effect after 48 hrs by crystal violet staining-based microscopic analysis. (Damage to the host cells serves as the signal in cytopathic effect assays.)

pIC50: −log10 of the molar value.

Consider `NC1(C23CC4CC(CC(C4)C2)C3)CCCCC1`, for which the IC50 result is “Not Active”.

A word on the pIC50: it is the negative decadic logarithm of the IC50, by convention in mol/L. `NC1(C23CC4CC(CC(C4)C2)C3)CCCC1`: the pIC50 is 5.36 to 5.41.
